According to article PMC3169616, “Unique Residues Involved in Activation of the Multitasking Protease/Chaperone HtrA from Chlamydia trachomatis” (PLoS ONE, 2011):
The structures given here were assigned with low confidence; some may be wrong.

By UniProt entry, the sequences of proteins in these tests, tags left out. Residues count along the entry.
UniProt P18584, 17-497 limits assumed: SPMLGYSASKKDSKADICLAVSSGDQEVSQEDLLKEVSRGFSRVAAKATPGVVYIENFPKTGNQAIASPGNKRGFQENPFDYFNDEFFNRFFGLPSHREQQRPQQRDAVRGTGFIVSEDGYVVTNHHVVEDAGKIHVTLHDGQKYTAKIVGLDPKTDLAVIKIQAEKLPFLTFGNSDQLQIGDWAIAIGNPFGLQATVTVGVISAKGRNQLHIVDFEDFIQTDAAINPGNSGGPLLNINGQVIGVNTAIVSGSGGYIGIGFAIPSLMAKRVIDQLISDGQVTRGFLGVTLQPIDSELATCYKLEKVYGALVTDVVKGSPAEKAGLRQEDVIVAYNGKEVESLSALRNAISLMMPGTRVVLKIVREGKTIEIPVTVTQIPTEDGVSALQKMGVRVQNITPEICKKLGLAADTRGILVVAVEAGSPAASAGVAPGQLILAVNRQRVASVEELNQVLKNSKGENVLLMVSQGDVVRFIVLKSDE

Biological target: CtHtrA (Chlamydia trachomatis serovar D, UniProt P18584)
Assay: Protease assay and kinetic analysis with pNA-labelled peptide substrates
Format: biochemical
Procedure: A series of peptide substrates were then designed based on the cleavage sites previously identified in ß-casein [3], PICS results, previously published substrates for E. coli DegP [22], and the REPLi library screening results. These peptides were assayed against CtHtrA and kinetic analysis was conducted (Table 2). The ‘best’ CtHtrA substrate was MFKLI-pNA (Kcat/Km = 1084.8). […] Generally, peptides with only 4 residues or less were not cleaved. FKLI-pNA was the only four residue peptide that was cleavable by CtHtrA. The preference for K at P3 implies a salt bridge may be involved in substrate coordination in the CtHtrA active site in the substrate pocket or subsite S3. In a direct comparison between MFRLI-pNA and MFQLI-pNA, R was clearly the most preferred. […] The Km for each of these, however, was at least an order of magnitude higher than the Km for MFKLI-pNa. The results from individually synthesised peptides (Table 2) and the peptides sourced from the REPLi library (Table 1) were consistent in that non-polar sequences are most preferred. MCA-IRRVSYSF-DNP, a peptide based on the optimal activity for human HtrA2 [23] was not a viable substrate for CtHtrA (data not shown). […] (Fig. S3).
The purified recombinant protein was examined by Coomassie stained polyacrylamide gels and activity was checked using ß-casein cleavage assays prior to use in peptide assays. Briefly, this involved incubating 2 µg of the protease with 10 µg of ß-casein in 50 mM Tris pH 7.0, 20 mM MgCl2 for 2 h prior to examining the assays by SDS PAGE (ß-casein and protease only controls were always conducted). Protease assays using peptides were conducted using custom synthesised peptides (Mimotopes). The peptides were purified to 95% purity (or greater) and were typically resuspended in 50% isopropanol, although some peptides required 100% DMSO. Protease assays using pNA labelled peptides were conducted using the xMARK Microplate spectrophotometer (Bio-Rad) at 405 nm, incubated at 37°C, with a reading taken every 10 s for 30 min. The maximum slope over a minimum of 8 readings was used for the data analysis. Other peptides were labelled with 7-methoxycoumarin-4-acetic acid (MCA, fluorophore) and 2,4-dinitrophenyl (DNP, quencher). The protease assays using these peptides were conducted in black plates at 37°C using the POLARstar Optima (BMG Labtech). The assays were excited at 340 nm and emission was detected at 405 nm with a gain of 1000, the assays were monitored every 20 s or at the minimum cycle time for up to 40 min. […] The assay results shown for the fluorescent compounds have been normalised for the amount of fluorescent emission detected using a standard curve of known concentrations of the MCA fluorophore under the identical assay conditions. […]

[1] = pNA peptide as substrate, absorbance 405 nm, 37°C

CC[C@H](C)[C@H](NC(=O)[C@H](CC(C)C)NC(=O)[C@H](CCCCN)NC(=O)[C@@H](N)Cc1ccccc1)C(=O)Nc1ccc([N+](=O)[O-])cc1
Kcat/Km [1]: 28.2 M⁻¹ s⁻¹ | Km [1]: 574 µM | Vmax (pNA peptide as substrate, absorbance 405 nm, 37°C, reading every 10 s for 30 min): 0.9723 mM sec^−1, µM CtHtrA^−1 | cleavage of pNA peptide by CtHtrA (in words) (peptides of four residues or less): cleavable by CtHtrA
